Pooled drug test results. Numbers come from NIAID ChemDB, via PubChem.

Shared fields: target-level tests; agent: Pneumocystis carinii; protein: Dihydrofolate reductase; measure: IC50

Rows are shuffled and stem from different studies.

Nc1nc(N)c2nc(COc3ccccc3)cnc2n1 ; value: 136 µM
Nc1nc(N)c2c(n1)CCc1cc(Cl)ccc1-2 ; value: 5.8 µM
Cc1c(CNc2ccc(C(=O)NC(CC(=O)O)C(=O)O)cc2)ccc2nc(N)nc(N)c12 ; value: 0.00042 µM
Nc1nc(N)c2c(n1)CCc1ccc(Cl)cc1-2 ; value: 7 µM
CN(Cc1cnc2nc(N)nc(N)c2n1)c1ccc(C(=O)N[C@@H](CCC(=O)N[C@@H](CCC(=O)N[C@@H](CCC(=O)O)C(=O)O)C(=O)O)C(=O)O)cc1 ; value: 0.0002 µM
Nc1nc(N)c2cc(CO)cnc2n1 ; value: >104 µM
CN(Cc1cnc2nc(N)nc(N)c2n1)c1ccc(C(=O)N[C@@H](CCC(=O)O)C(=O)O)c2ccccc12 ; value: 0.00019 µM
Nc1nc(N)c2c(n1)CCc1c(Cl)cc(Cl)cc1-2 ; value: 13 µM
Nc1nc(N)c2cc(CNc3ccc(C(=O)NC(CCC(=O)O)C(=O)O)c4ccccc34)cnc2n1 ; value: 0.00053 µM
CN(Cc1cnc2nc(N)nc(N)c2n1)c1c(Cl)cc(C(=O)N[C@@H](CCC(=O)O)C(=O)O)cc1Cl ; value: 0.000035 µM
Nc1nc(N)c2c(ccc3c2ccn3Cc2ccc(Cl)cc2Cl)n1 ; value: 0.006 µM
Cc1cc2c(cc1C)-c1c(N)nc(N)nc1CC2 ; value: 0.59 µM
COc1ccc2c(c1)CCN2Cc1cnc2nc(N)nc(N)c2c1C ; value: 0.29 µM
Nc1nc(N)c2c(ccc3ccc(Cl)cc32)n1 ; value: 3.5–4.1 µM
CN(Cc1cnc2nc(N)nc(N)c2n1)c1ccc(C(=O)N[C@@H](CCC(=O)N[C@@H](CCC(=O)N[C@@H](CCC(=O)N[C@@H](CCC(=O)O)C(=O)O)C(=O)O)C(=O)O)C(=O)O)cc1 ; value: 0.000035 µM

A second listing of 2 rows from above:

Nc1nc(N)c2c(n1)CCc1ccc(Cl)cc1-2 ; value: 7 µM
Nc1nc(N)c2cc(CO)cnc2n1 ; value: >104 µM

Two numbers with a dash give a range or band. ICn: concentration for n% inhibition.